From paper PMC11024961, “Effects of Chrysin and Chrysin-7-sulfate on Ochratoxin A-Albumin Interactions and on the Plasma and Kidney Levels of the Mycotoxin in Rats” (ACS Omega, 2024)
Values joined by “and” are separate entries in the source; they are usually repeats but may differ in a detail not shown here. Equal entries are not always repeated.

Assay: Fluorescence emission and anisotropy of OTA without albumin
Settings: for effect on fluorescence intensity of OTA in the absence of albumin, in words: ligand 0–30 μM, OTA 1.0 μM, inner-filter corrected

| Compound | fluorescence anisotropy (r) of OTA (without albumin, PBS pH 7.4) | effect on fluorescence intensity of OTA in the absence of albumin, in words |
| --- | --- | --- |
| C[C@@H]1Cc2c(Cl)cc(C(=O)N[C@@H](Cc3ccccc3)C(=O)O)c(O)c2C(=O)O1 [OTA, Ochratoxin A] | 0.007 and 0.007 ± 0.001 | – |
| C=CC1=C(C)/C(=C/c2[nH]c(Cc3[nH]c(/C=C4\NC(=O)C(C)=C4C=C)c(C)c3CCC(=O)O)c(CCC(=O)O)c2C)NC1=O [bilirubin] | – | strongly reduced |
| hemin | – | strongly reduced |
